Measured values reported in patent US20160158376A1 (priority 2013, published 2016).
Read-outs that look alike come from different tables or passages of the source.

Tests used:
hemolysis = conditions: as amphotericin B; result of reference CN 1596129 A example 3; cited from earlier work
[1] = female rats
[2] = i.v. 5 mg/kg (amphotericin B equivalent), 1 d
[3] = i.v. 5 mg/kg (amphotericin B equivalent), 2 d
[4] = i.v. 5 mg/kg (amphotericin B equivalent), 3 d
[5] = i.v. 5 mg/kg (amphotericin B equivalent), 4 d
[6] = i.v. 5 mg/kg (amphotericin B equivalent), 5 d
[7] = i.v. 5 mg/kg (amphotericin B equivalent), 6 d
[8] = i.v. 5 mg/kg (amphotericin B equivalent), 7 d
[9] = i.v. 5 mg/kg (amphotericin B equivalent), 8 d
[10] = i.v. 10 mg/kg (amphotericin B equivalent), 1 d
[11] = i.v. 10 mg/kg (amphotericin B equivalent), 2 d
[12] = i.v. 10 mg/kg (amphotericin B equivalent), 3 d
[13] = i.v. 10 mg/kg (amphotericin B equivalent), 4 d
[14] = i.v. 10 mg/kg (amphotericin B equivalent), 5 d
[15] = i.v. 10 mg/kg (amphotericin B equivalent), 6 d
[16] = i.v. 10 mg/kg (amphotericin B equivalent), 7 d
[17] = i.v. 10 mg/kg (amphotericin B equivalent), 8 d
[18] = i.v. 15 mg/kg (amphotericin B equivalent), 1 d
[19] = i.v. 15 mg/kg (amphotericin B equivalent), 2 d
[20] = i.v. 15 mg/kg (amphotericin B equivalent), 3 d
[21] = i.v. 15 mg/kg (amphotericin B equivalent), 4 d
[22] = i.v. 15 mg/kg (amphotericin B equivalent), 5 d
[23] = i.v. 15 mg/kg (amphotericin B equivalent), 6 d
[24] = i.v. 15 mg/kg (amphotericin B equivalent), 7 d
[25] = i.v. 15 mg/kg (amphotericin B equivalent), 8 d
[26] = i.v. 18 mg/kg (amphotericin B equivalent), 1 d
[27] = i.v. 18 mg/kg (amphotericin B equivalent), 2 d
[28] = i.v. 30 mg/kg (amphotericin B equivalent), 1 d

amphotericin B-hydroxyethyl starch polyconjugate [Preparation 22]
concentration at which hemolysis began (hemolysis): 400 µg/mL

poly-aspartic acid-amphotericin B polyconjugate [Preparation 1]
Body weight [1, 2]: 144.0 g
percentage weight increment compared to Day 0 [1, 2]: (−7.4%)
Body weight [1, 3]: 146.0 g
percentage weight increment compared to Day 0 [1, 3]: (−6.1%)
Body weight [1, 4]: 143.2 g
percentage weight increment compared to Day 0 [1, 4]: (−7.9%)
Body weight [1, 5]: 140.2 g
percentage weight increment compared to Day 0 [1, 5]: (−9.8%)
Body weight [1, 6]: 140.5 g
percentage weight increment compared to Day 0 [1, 6]: (−9.7%)
Body weight [1, 7]: 143.0 g
percentage weight increment compared to Day 0 [1, 7]: (−8.0%)
Body weight [1, 8]: 149.0 g
percentage weight increment compared to Day 0 [1, 8]: (−4.2%)
Body weight [1, 9]: 151.5 g
percentage weight increment compared to Day 0 [1, 9]: (−2.6%)
Body weight [1, 10]: 110.1 g
percentage weight increment compared to Day 0 [1, 10]: (−12.1%)
Body weight [1, 11]: 114.0 g
percentage weight increment compared to Day 0 [1, 11]: (−9.0%)
Body weight [1, 12]: 109.0 g
percentage weight increment compared to Day 0 [1, 12]: (−13.0%)
Body weight [1, 13]: 109.4 g
percentage weight increment compared to Day 0 [1, 13]: (−12.7%)
Body weight [1, 14]: 116.8 g
percentage weight increment compared to Day 0 [1, 14]: (−6.8%)
Body weight [1, 15]: 124.5 g
percentage weight increment compared to Day 0 [1, 15]: (−0.6%)
Body weight [1, 16]: 131.5 g
percentage weight increment compared to Day 0 [1, 16]: (+5.0%)
Body weight [1, 17]: 133.6 g
percentage weight increment compared to Day 0 [1, 17]: (+6.6%)
Body weight [1, 18]: 129.4 g
percentage weight increment compared to Day 0 [1, 18]: (−11.0%)
Body weight [1, 19]: 134.3 g
percentage weight increment compared to Day 0 [1, 19]: (−7.6%)
Body weight [1, 20]: 130.5 g
percentage weight increment compared to Day 0 [1, 20]: (−10.3%)
Body weight [1, 21]: 125.1 g
percentage weight increment compared to Day 0 [1, 21]: (−14.0%)
Body weight [1, 22]: 129.3 g
percentage weight increment compared to Day 0 [1, 22]: (−11.1%)
Body weight [1, 23]: 136.6 g
percentage weight increment compared to Day 0 [1, 23]: (−6.1%)
Body weight [1, 24]: 145.5 g
percentage weight increment compared to Day 0 [1, 24]: (+0.1%)
Body weight [1, 25]: 148.3 g
percentage weight increment compared to Day 0 [1, 25]: (+2.0%)
Body weight [1, 26]: 145.0 g
percentage weight increment compared to Day 0 [1, 26]: (−10.1%)
Body weight [1, 27]: 139.5 g
percentage weight increment compared to Day 0 [1, 27]: (−13.5%)
Body weight [1, 28]: 125.9 g
percentage weight increment compared to Day 0 [1, 28]: (−9.8%)
